Results of unrelated studies side by side (data: NIAID ChemDB).

All rows: whole-cell or culture tests; species: Mycobacterium tuberculosis

MIC50, MIC90 and the like: level of inhibition, or share of isolates inhibited. Inhibition is in % at the dose shown (toxicity tests: loss of growth or viability). MIC bound comes from a single tested concentration. ECn is the concentration giving n% inhibition of infection, replication or growth. Neighbouring rows are from separate reports. Blank or dashed fields: not listed here.

structure	setting	dose	strain or isolate	cells	measure	method	value
CSc1ccc(C2CC(c3c(O)c4cc(C)ccc4oc3=O)=Nc3ccccc3N2)cc1			H37Rv		MIC	resazurin	>6.25 µg/mL
CCCCB1OB(CCCC)OB(CCCC)O1			H37Rv		MIC	BACTEC	≥128 µg/mL
CCOC(=O)C1=C(C)NC(C)=C(C(=O)OCC)C1c1cn(-c2ccccc2)nc1-c1ccc(Br)cc1			H37Rv	VERO	MIC	resazurin	0.02 µg/mL
C=C(C)C(=O)O[C@H]1CC2=C[C@@H](C[C@@]3(C)O[C@H]3[C@H]3OC(=O)C(=C)[C@@H]31)OC2=O			H37Rv		MIC bound	BACTEC	>12.8 µg/mL
CCCc1cc(=O)oc2c(C(=O)CC)c(OC(C)C)cc(OC(C)C)c12			H37Ra		MIC		>128 µg/mL
CCCCCCCCCC1=C(O)C(=O)C(C)=C(O)C1=O			H37Rv		MIC	BACTEC	64 µg/mL
CCNC(=S)N=Nc1c(O)n(C)c2ccc(OC(F)(F)F)cc12			H37Rv		EC50	broth dilution / resazurin	5.987 µg/mL
Cc1cc(N)c2c(c1O)C(=O)c1ccccc1C2=O		12.5 µg/mL	H37Rv		inhibition	BACTEC	-33%
CCCCCCCCCCP(=O)([O-])C[C@@H]1O[C@H](CO)[C@@H](O)[C@@H]1O			H37Rv		EC50		>6.25 µg/mL
COc1ccccc1Nc1nc(NNC(=O)c2ccncc2)nc(Nc2ccccn2)n1		0.0677 µM	H37Rv		inhibition	BACTEC / radiometric	81%
C=C1OC(=O)C(=O)N1CC(=O)O			H37Rv		MIC bound	BACTEC	>12.5 µg/mL
Cn1c(NNc2nc(Nc3ccc(F)c(Cl)c3)nc(Nc3ccc(F)c(Cl)c3)n2)nc(-c2ccc(Cl)cc2)c(C#N)c1=O			H37Rv	VERO	EC50		<12.5 µg/mL
Cc1ccc(Nc2nc(N)nc(N)c2N)cc1Cl.O=S(=O)(O)O			H37Rv		MIC bound	BACTEC	>12.5 µg/mL
CC1=NN(CC(=O)N/N=C/c2ccc(-c3ccc(C=O)o3)cc2)C(=O)CC1					MIC	agar	>25 µM
O=C(CN1CCCC1)N/N=C\C(=O)c1ccc(Sc2ccccc2)cc1					MIC		>50 µg/mL
CCCCNC(=S)N=Nc1c(O)n(C)c2ccc(C)cc12			H37Rv		EC50	broth dilution / resazurin	>100 µg/mL
COc1nc2ccc(Br)cc2cc1C(c1ccccc1)C(O)(CCN1CCSCC1)c1ccccc1			H37Rv		MIC90		44.77 µg/mL
Cc1ccc2c(c1)c(N=NC(=S)Nc1ccc([N+](=O)[O-])cc1)c(O)n2C			H37Rv		EC50	broth dilution / resazurin	>100 µg/mL
Cn1c(NNc2nc(Nc3cccc([N+](=O)[O-])c3)nc(Nc3cccc([N+](=O)[O-])c3)n2)nc(-c2ccccc2)c(C#N)c1=O			H37Rv		EC50		<12.5 µg/mL
CC(=O)Nc1c2sscc-2n(C)c1=O			CS-R		MIC		0.5 µg/mL
CC1COc2c(N3CCN(C)CC3)c(F)cc3c(=O)c(C(=O)O)cn1c23			25 strains		MIC90		0.8 µg/mL
COc1nc2ccc(Br)cc2cc1C(c1ccccc1)C(O)(CCN1CCCC1)c1ccc2cc(Br)ccc2c1			H37Rv		MIC90		52.46 µg/mL
O=C(CC1Sc2ccccc2NC1=O)NNc1ccc(Cl)cc1Cl			H37Rv		MIC	BACTEC	≥12.5 µg/mL
Cc1ccc(Nc2nc(NNc3nc(-c4ccc(Cl)cc4)c(C#N)c(=O)n3C)nc(Nc3ccc(C)cc3C)n2)c(C)c1		12.5 µg/mL	H37Rv		inhibition		56%
CCOC(=O)C1=C(C)NC(C)=C(C(=O)OCC)C1c1cn(-c2ccccc2)nc1-c1ccc([N+](=O)[O-])cc1			H37Rv	VERO	MIC	resazurin	3.13 µg/mL
COS(=O)(=O)OC1(SC)C=C(c2ccccc2)SS1		12.5 µg/mL	H37Rv		inhibition	BACTEC	0%
Cn1c(NNc2nc(NCc3ccco3)nc(NCc3ccco3)n2)nc(-c2ccccc2)c(C#N)c1=O		12.5 µg/mL	H37Rv		inhibition		47%
CCCc1cc(=O)oc2c(C(O)CC)c(OC(C)C)cc(OC(C)C)c12			H37Ra		MIC		>128 µg/mL
COC(=O)/C(=N\O)c1[nH]c2ccccc2c1[C@H]1SC[C@@H](O)C(c2ccc(O)c(OC)c2)(c2ncc[nH]2)S1			H37Rv		EC50		>12.5 µg/mL
C[N+](C)(C)CC(=O)N/N=C(\Cc1nc2ccc([N+](=O)[O-])cc2[nH]c1=O)C(=O)Nc1cc(C(F)(F)F)ccc1Cl.[Cl-]		12.5 µg/mL	H37Rv		inhibition	BACTEC	1%
CO[C@H]1/C=C/O[C@@]2(C)Oc3c(C)c(O)c4c(=O)c(c5oc6cc(N7CCN(CC(C)C)CC7)cc(=O)c6nc5c4c3=C2O)NC(=O)/C(C)=C\C=C\[C@H](C)[C@H](O)[C@@H](C)[C@@H](O)[C@@H](C)[C@H](OC(C)=O)[C@@H]1C	inside macrophages	10 µg/mL	Kurono		inhibition		96.9%
CCCCCCCCCCCCCCCCCCCCS(=O)(=O)C[C@@H]1O[C@H](CO)[C@@H](O)[C@@H]1O		6.25 µg/mL	H37Rv		inhibition		4%
CC1COc2c(N3CCN(C)CC3)c(F)cc3c(=O)c(C(=O)O)cn1c23			001-012 (drug-resistant)		MIC		1 µg/mL
COc1ccc(Nc2nc(NNc3nc(-c4ccc(Cl)cc4)c(C#N)c(=O)n3C)nc(Nc3ccc(OC)cc3)n2)cc1			H37Rv		MIC		>12.5 µg/mL
CCOC(=O)C1=C(C)NC(C)=C(C(=O)OCC)C1c1cn(-c2ccccc2)nc1-c1ccccc1			H37Rv	VERO	MIC	resazurin	1.56 µg/mL
CCCc1cc(=O)oc2c(C(=O)CC)c(OCC(=O)OCC)c3c(c12)OC(C)(C)CC3			H37Ra		MIC		>128 µg/mL
COc1ccc(Nc2nc(NNc3nc(-c4ccccc4)c(C#N)c(=O)n3C)nc(Nc3ccc(OC)cc3)n2)cc1			H37Rv		MIC		>12.5 µg/mL
NC(=O)c1nccnc1NCc1ccc(N)cc1			H37Rv		MIC	resazurin / fluorescence	6.25 µg/mL
CSc1ccc(C2CC(c3c(O)c4c(C)ccc(C)c4oc3=O)=Nc3ccccc3N2)cc1			H37Rv		MIC	resazurin	>6.25 µg/mL
Cc1[nH]c2ccc(N(C)C)cc2c(=O)c1CN(C)C			H37Rv		MIC bound	BACTEC	>12.5 µg/mL
COC(=O)C1=C(C)NC(C)=C(C(=O)OC)C1c1cn(-c2ccccc2)nc1-c1ccc(OC)cc1		6.25 µg/mL	H37Rv		inhibition	resazurin	5%
CNC(=S)N=Nc1c(O)[nH]c2ccc(OC(F)(F)F)cc12			H37Rv		EC90	broth dilution / resazurin	>100 µg/mL
O=C(CN1CCCCC1)N/N=C\C(=O)c1ccc(-c2ccccc2)cc1					MIC		>50 µg/mL
CCCCCCCCCCCCCCCOCCCCCCCCCCS(=O)(=O)C[C@@H]1O[C@H](CO)[C@@H](O)[C@@H]1O		6.25 µg/mL	H37Rv		inhibition		0%
Cc1ccccc1Nc1nc(NNC(=O)c2ccncc2)nc(Nc2ccccn2)n1		0.111 µM	H37Rv		inhibition	BACTEC / radiometric	71%
c1ccc(-c2cnnc3c4ccccc4nn23)cc1			H37Rv		MIC bound	resazurin	>6.25 µg/mL
NC(=O)c1nccnc1NCc1ccc(C(F)(F)F)cc1			H37Rv		MIC	resazurin / fluorescence	12.5 µg/mL
Cc1oc2ccccc2c(=O)c1Cn1cnc2ccc([N+](=O)[O-])cc21			H37Rv		MIC bound	resazurin	>6.25 µg/mL
CCN(CC)CCC(O)(c1ccccc1)C(c1ccccc1)c1cc2cc(Br)ccc2nc1OC			H37Rv		MIC90		6.72 µg/mL
COC(=O)C1=C(C)NC(C)=C(C(=O)OC)C1c1cn(-c2ccccc2)nc1-c1ccccc1		6.25 µg/mL	H37Rv		inhibition	resazurin	12%
O=C(NNc1nc(Nc2cccc(Cl)c2)nc(Nc2ccccn2)n1)c1ccncc1		0.055 µM	H37Rv		inhibition	BACTEC / radiometric	82%
COc1ccc(CC(NC(=O)NSc2ccccc2)C(=O)N[C@H]2[C@@H](O)[C@H](n3cnc4c(N(C)C)ncnc43)O[C@@H]2CO)cc1			H37Rv		MIC bound	BACTEC	>12.5 µg/mL
O=c1oc2ccccc2c(O)c1C1=Nc2ccccc2SC(c2ccccc2[N+](=O)[O-])C1			H37Rv		MIC	resazurin	<6.25 µg/mL
COc1ccc(Nc2nc(NNC(=O)c3ccncc3)nc(Nc3ccccn3)n2)cc1		0.0211 µM	H37Rv		inhibition	BACTEC / radiometric	94%
CCCN1CCN(c2cc(=O)c3nc4c(oc3c2)c2c(=O)c3c(O)c(C)c5c(c34)=C(O)[C@@](C)(O/C=C/[C@H](OC)[C@@H](C)[C@@H](OC(C)=O)[C@H](C)[C@H](O)[C@H](C)[C@@H](O)[C@@H](C)/C=C/C=C(/C)C(=O)N2)O5)CC1			16 strains (rifampicin-susceptible)		MIC50		≤0.0125 µg/mL
CSc1ccc(C2C(C(=O)Nc3ccccc3)=C(C)NC(C)=C2C(=O)Nc2ccccc2)cc1		2.5 µg/mL	H37Rv		inhibition		69%
Cc1ccc(Nc2nc(NNC(=O)c3ccncc3)nc(Nc3ccccn3)n2)cc1		0.1127 µM	H37Rv		inhibition	BACTEC / radiometric	77%
COc1ccccc1Nc1nc(NNc2nc(-c3ccc(Cl)cc3)c(C#N)c(=O)n2C)nc(Nc2ccccc2OC)n1		12.5 µg/mL	H37Rv		inhibition		12%
O=C1CSC(c2ccccn2)N1CCN1C(=O)CSC1c1ccccn1		12.5 µg/mL	H37Rv		inhibition	BACTEC	0%
CCN(CC)CC(=O)N/N=C\C(=O)c1ccc(-c2ccccc2)cc1					MIC		>50 µg/mL
CN1CC2(Cc3ccccc3)c3ccccc3NC2(NC(=O)C(=O)NC23Nc4ccccc4C2(Cc2ccccc2)CN(C)C3=O)C1=O			H37Rv		MIC bound	BACTEC	>12.8 µg/mL
Cc1ccc2oc(=O)c(C3=Nc4ccccc4NC(c4cccc(Oc5ccccc5)c4)C3)c(O)c2c1			H37Rv		MIC	resazurin	>6.25 µg/mL
CCNC(=S)N=Nc1c(O)n(CN2CCOCC2)c2ccc(OC(F)(F)F)cc12			H37Rv		EC50	broth dilution / resazurin	2.095 µg/mL
COC(=O)C1=C(C)NC(C)=C(C(=O)OC)C1c1cn(-c2ccccc2)nc1-c1ccc(O)cc1		6.25 µg/mL	H37Rv		inhibition	resazurin	38%
CCCc1cc(=O)oc2c3c(c4c(c12)OC(C)(C)C=C4)O[C@@H](C)[C@H](C)[C@@H]3O		12.5 µg/mL	H37Rv		inhibition	BACTEC	99%
O=C(CN1CCOCC1)N/N=C\C(=O)c1ccc(Oc2ccccc2)cc1					MIC		>50 µg/mL
Cc1ccc2[nH]c(O)c(N=NC(=S)Nc3ccc(Cl)cc3)c2c1			H37Rv		EC50	broth dilution / resazurin	2.526 µg/mL
[N-]=[N+]=N/C1=C/CCCCC(=O)C1		12.5 µg/mL	H37Rv		inhibition	BACTEC	-2%
CCOC(=O)C1=C(C)NC(C)=C(C(=O)OCC)C1c1cn(-c2ccccc2)nc1-c1ccc(O)cc1		6.25 µg/mL	H37Rv	VERO	inhibition	resazurin	97%
O=S(=O)(O)c1cc(O)c2c(N=Nc3ccc(N=Nc4c(S(=O)(=O)O)cc5cc(Nc6ccccc6)ccc5c4O)c4ccccc34)cc(S(=O)(=O)O)cc2c1		128 µg/mL	H37Rv		inhibition	BACTEC	55%
CCCCCCCCCCCCP(=O)([O-])C[C@@H]1O[C@H](CO)[C@@H](O)[C@@H]1O		6.25 µg/mL	H37Rv		inhibition		17%
COc1ccc(/C=C2\NC(c3ccccc3)OC2=O)cc1OC		12.5 µg/mL	H37Rv		inhibition	BACTEC	-32%
Cc1ccc2[nH]c(O)c(N=NC(=S)Nc3ccccc3)c2c1			H37Rv		EC90	broth dilution / resazurin	1.433 µg/mL
CCCCCCCCCS(=O)(=O)C[C@@H]1O[C@H](CO)[C@@H](O)[C@@H]1O		6.25 µg/mL	H37Rv		inhibition		0%
CC1=C(C(=O)Nc2cc(C)ccc2C)C(c2ccccc2O)C(C(=O)Nc2cc(C)ccc2C)=C(C)N1			H37Rv		EC50		>2.5 µg/mL
CC[C@@H](C)N1CCN(c2cc(=O)c3nc4c(oc3c2)c2c(=O)c3c(O)c(C)c5c(c34)=C(O)[C@@](C)(O/C=C/[C@H](OC)[C@@H](C)[C@@H](OC(C)=O)[C@H](C)[C@H](O)[C@H](C)[C@@H](O)[C@@H](C)/C=C/C=C(/C)C(=O)N2)O5)CC1			6 strains (rifampicin-resistant)		MIC50		≤0.0125 µg/mL
COc1ccc(C2C(C(=O)Nc3ccc(Cl)cc3)=C(C)NC(C)=C2C(=O)Nc2ccc(Cl)cc2)c(O)c1			H37Rv		EC50		<2.5 µg/mL
COc1nc2ccc(Br)cc2cc1C(c1ccccc1)C(O)(CCN1CCOCC1)c1ccc2cc(Br)ccc2c1			H37Rv		MIC90		67.65 µg/mL
C#CCOc1c2c(c3c(CCC)cc(=O)oc3c1C(=O)CC)OC(C)(C)CC2			H37Ra		MIC		>128 µg/mL
Oc1c(N=NC(=S)Nc2ccccc2)c2cc(OC(F)(F)F)ccc2n1CN1CCOCC1			H37Rv		EC50	broth dilution / resazurin	4.847 µg/mL

Repeating the first 4 entries:

| structure | setting | dose | strain or isolate | cells | measure | method | value |
|---|---|---|---|---|---|---|---|
| CSc1ccc(C2CC(c3c(O)c4cc(C)ccc4oc3=O)=Nc3ccccc3N2)cc1 |  |  | H37Rv |  | MIC | resazurin | >6.25 µg/mL |
| CCCCB1OB(CCCC)OB(CCCC)O1 |  |  | H37Rv |  | MIC | BACTEC | ≥128 µg/mL |
| CCOC(=O)C1=C(C)NC(C)=C(C(=O)OCC)C1c1cn(-c2ccccc2)nc1-c1ccc(Br)cc1 |  |  | H37Rv | VERO | MIC | resazurin | 0.02 µg/mL |
| C=C(C)C(=O)O[C@H]1CC2=C[C@@H](C[C@@]3(C)O[C@H]3[C@H]3OC(=O)C(=C)[C@@H]31)OC2=O |  |  | H37Rv |  | MIC bound | BACTEC | >12.8 µg/mL |